These are literature values, as cited in publication PMC7961048, “Hierarchized phosphotarget binding by the seven human 14-3-3 isoforms” (Nature Communications, 2021).

Where two headings read alike, the source gives them in different places.

For this data set, the system named is 14-3-3 isoforms. The note with it: Figure 4 panel e, cited from earlier work.

SFN: the “number of interactions per isoform” value reads like this: (number of 1433 isoforms 1) 26; (number of 1433 isoforms 2) 1; (number of 1433 isoforms 3) 1; (number of 1433 isoforms 4) 1; (number of 1433 isoforms 5) 1; (number of 1433 isoforms 6) 7. The “number of interactions per isoform” value (number of 1433 isoforms 7) is on record as 14.
For the substance YWHAB, the “number of interactions per isoform” value reads like this: (number of 1433 isoforms 1) 8; (number of 1433 isoforms 2) 9; (number of 1433 isoforms 3) 54; (number of 1433 isoforms 4) 64; (number of 1433 isoforms 5) 116; (number of 1433 isoforms 6) 27. In addition, the “number of interactions per isoform” value (number of 1433 isoforms 7) is listed as 14.
With YWHAE, the “number of interactions per isoform” value runs as follows: (number of 1433 isoforms 1) 1; (number of 1433 isoforms 2) 7; (number of 1433 isoforms 3) 10; (number of 1433 isoforms 4) 6; (number of 1433 isoforms 5) 9; (number of 1433 isoforms 6) 28. Moreover, the “number of interactions per isoform” value (number of 1433 isoforms 7) was 14.
Regarding YWHAG, the “number of interactions per isoform” value is recorded as 50 (number of 1433 isoforms 1); 80 (number of 1433 isoforms 2); 70 (number of 1433 isoforms 3); 70 (number of 1433 isoforms 4); 119 (number of 1433 isoforms 5); 27 (number of 1433 isoforms 6). Moreover, the “number of interactions per isoform” value (number of 1433 isoforms 7) is given as 14.
For YWHAQ, the “number of interactions per isoform” value is, setting by setting: (number of 1433 isoforms 1) 22; (number of 1433 isoforms 2) 5; (number of 1433 isoforms 3) 10; (number of 1433 isoforms 4) 56; (number of 1433 isoforms 5) 119; (number of 1433 isoforms 6) 26. Also, the “number of interactions per isoform” value (number of 1433 isoforms 7) is 14.
Turning to YWHAZ, the “number of interactions per isoform” value is, setting by setting: (number of 1433 isoforms 1) 2; (number of 1433 isoforms 2) 5; (number of 1433 isoforms 3) 11; (number of 1433 isoforms 4) 19; (number of 1433 isoforms 5) 117; (number of 1433 isoforms 6) 27. Besides, where the note is “number of 1433 isoforms 7”, the “number of interactions per isoform” value is listed as 14.
